Assay results reported in ChEMBL document CHEMBL4017475, “Discovery of benzophosphadiazine drug candidate IDX375: A novel hepatitis C allosteric NS5B RdRp inhibitor” (2017).

How the values were obtained:
[1] = Inhibition of Hepatitis C virus 1a NS5B RNA-dependent RNA polymerase by cell based assay
Hepatitis C virus = assay: Antiviral activity against Hepatitis C virus by luciferase assay
[2] = Inhibition of Hepatitis C virus 1b NS5B RNA-dependent RNA polymerase by cell based assay

Row | SMILES | IC50 [1] [nM] | EC50 (Hepatitis C virus) [nM] | IC50 [2] [nM]
1 | CCOP1(=O)N=C(C2=C(O)C(C(C)(C)C)N(CCC(C)(C)C)C2=O)Nc2ccc(C#N)cc21 (stereo unspecified) | 4960 | 3180 | 85
2 | CCOP1(=O)N=C(C2=C(O)C(C)(CC)N(CCC(C)(C)C)C2=O)Nc2ccc(NS(C)(=O)=O)cc21 (stereo unspecified) | – | > 8300 | 800
3 | CCOP1(=O)N=C(C2=C(O)C(C(C)(C)C)N(CCC(C)(C)C)C2=O)Nc2ccc(C)cc21 (stereo unspecified) | > 10000 | 4400 | 451
4 | CCOP1(=O)N=C(C2=C(O)C(C3CC3)N(CCC(C)(C)C)C2=O)Nc2ccc(NS(C)(=O)=O)cc21 (stereo unspecified) | 206 | 1200 | 12
5 | CCOP1(=O)N=C(C2=C(O)C(c3ccccc3)N(CCC(C)(C)C)C2=O)Nc2ccc(NS(C)(=O)=O)cc21 (stereo unspecified) | 728 | 5510 | 40
6 | CCOP1(=O)N=C(C2=C(O)C(C3CCCCC3)N(CCC(C)(C)C)C2=O)Nc2ccc(NS(C)(=O)=O)cc21 (stereo unspecified) | 97 | 216 | 7
7 | CCOP1(=O)N=C(C2=C(O)C(C(C)(C)C)N(Cc3ccc(F)c(OC)c3)C2=O)Nc2ccc(NS(C)(=O)=O)cc21 (stereo unspecified) | 20 | 39 | 9
8 | CCOP1(=O)N=C(C2=C(O)C(C(C)(C)C)N(Cc3cnn(C)c3)C2=O)Nc2ccc(NS(C)(=O)=O)cc21 (stereo unspecified) | 8130 | > 8300 | 91
9 | CCOP1(=O)N=C(C2=C(O)C(Cc3cscn3)N(CCC(C)(C)C)C2=O)Nc2ccc(NS(C)(=O)=O)cc21 (stereo unspecified) | 2600 | > 8300 | 490
10 | CCO[P@@]1(=O)N=C(C2=C(O)[C@@H](C(C)(C)C)N(CCC(C)(C)C)C2=O)Nc2ccc(NS(C)(=O)=O)cc21 | 324 | 568 | 14
11 | CCOP1(=O)N=C(C2=C(O)C(C(C)(C)C)N(Cc3ccc(F)c(F)c3)C2=O)Nc2ccc(NS(C)(=O)=O)cc21 (stereo unspecified) | 15 | 18 | 5
12 | CCO[P@]1(=O)N=C(C2=C(O)[C@@H](C(C)(C)C)N(CCC(C)(C)C)C2=O)Nc2ccc(NS(C)(=O)=O)cc21 | 1760 | 1400 | 12
13 | CCOP1(=O)N=C(C2=C(O)C(C3CCCC3)N(CCC(C)(C)C)C2=O)Nc2ccc(NS(C)(=O)=O)cc21 (stereo unspecified) | 67 | 55 | 8
14 | CCOP1(=O)N=C(C2=C(O)C(C(C)(C)C)N(Cc3cncs3)C2=O)Nc2ccc(NS(C)(=O)=O)cc21 (stereo unspecified) | 1000 | > 8300 | 65
15 | C#CCCCN1C(=O)C(C2=NP(=O)(OCC)c3cc(NS(C)(=O)=O)ccc3N2)=C(O)C1C(C)(C)C (stereo unspecified) | 167 | 1000 | 7
16 | CCOP1(=O)N=C(C2=C(O)C(C)(C)N(CCC(C)(C)C)C2=O)Nc2ccc(NS(C)(=O)=O)cc21 (stereo unspecified) | – | > 8300 | 1370
17 | CCOP1(=O)N=C(C2=C(O)C(C(C)(C)C)N(CCC3CC3)C2=O)Nc2ccc(NS(C)(=O)=O)cc21 (stereo unspecified) | 80 | 126 | 14
18 | CCOP1(=O)N=C(C2=C(O)C(C)(C(F)(F)F)N(CCC(C)(C)C)C2=O)Nc2ccc(NS(C)(=O)=O)cc21 (stereo unspecified) | > 10000 | > 8300 | 183
19 | CCOP1(=O)N=C(C2=C(O)C(C(C)(C)C)N(Cc3ccccc3)C2=O)Nc2ccc(NS(C)(=O)=O)cc21 (stereo unspecified) | 57 | 90 | 8
20 | CCOP1(=O)N=C(C2=C(O)C(C)(CC(C)C)N(CCC(C)(C)C)C2=O)Nc2ccc(NS(C)(=O)=O)cc21 (stereo unspecified) | 1360 | 4390 | 64
21 | CCOP1(=O)N=C(C2=C(O)C(C(C)(C)C)N(CCC(C)(C)C)C2=O)Nc2ccc(NS(N)(=O)=O)cc21 (stereo unspecified) | – | 56 | 8
22 | CCOP1(=O)N=C(C2=C(O)C(C(C)(C)C)N(Cc3cccc(Cl)c3)C2=O)Nc2ccc(NS(C)(=O)=O)cc21 (stereo unspecified) | 104 | 162 | 6
23 | CCOP1(=O)N=C(C2=C(O)C3(CCCCC3)N(CCC(C)(C)C)C2=O)Nc2ccc(NS(C)(=O)=O)cc21 (stereo unspecified) | 5330 | 5510 | 187
